Measurements: ChEMBL document CHEMBL1629572 (Antimicrob Agents Chemother, 2009)

Legend:
Influenza A virus [1] = test: Ratio of IC50 for Influenza A virus (A/Kawasaki/MS31A-1030/2002(H3N2)) neuraminidase N294S mutant to IC50 for Influenza A virus (A/Kawasaki/MS31A-1030/2002(H3N2)) wild type neuraminidase
Influenza A virus [2] = test: Ratio of IC50 for Influenza A virus (A/Kawasaki/IMS22A-954/2003(H3N2)) neuraminidase R292K mutant to IC50 for Influenza A virus (A/Kawasaki/IMS22A-954/2003(H3N2)) wild type neuraminidase
Influenza A virus [3] = test: Ratio of IC50 for Influenza A virus (A/Yokohama/IMS9A-2029/2003(H3N2)) neuraminidase E119V mutant to IC50 for Influenza A virus (A/Yokohama/IMS9A-2029/2003(H3N2)) wild type neuraminidase
Influenza A virus [4] = test: Ratio of IC50 for Influenza A virus (A/Yokohama/67/2006(clone 11)(H1N1)) neuraminidase H274Y mutant to IC50 for Influenza A virus (A/Yokohama/67/2006(clone 1)(H1N1)) wild type neuraminidase

## CCOC(=O)C1=C[C@@H](OC(CC)CC)[C@H](NC(C)=O)[C@@H](N)C1 [OSELTAMIVIR]
Influenza A virus [1]
  Ratio: 32
Influenza A virus [2]
  Ratio: 8400
Influenza A virus [3]
  Ratio: 79
Influenza A virus [4]
  Ratio: 330
